This note sets out measurements from PMC8381740, “P-I metalloproteinases and L-amino acid oxidases from Bothrops species inhibit angiogenesis” (2021).

Protein sequences, listed by entry. Tags and fused reporters are not part of them. Residues count along the entry.
UniProt P0CC17, 19-506 limits assumed: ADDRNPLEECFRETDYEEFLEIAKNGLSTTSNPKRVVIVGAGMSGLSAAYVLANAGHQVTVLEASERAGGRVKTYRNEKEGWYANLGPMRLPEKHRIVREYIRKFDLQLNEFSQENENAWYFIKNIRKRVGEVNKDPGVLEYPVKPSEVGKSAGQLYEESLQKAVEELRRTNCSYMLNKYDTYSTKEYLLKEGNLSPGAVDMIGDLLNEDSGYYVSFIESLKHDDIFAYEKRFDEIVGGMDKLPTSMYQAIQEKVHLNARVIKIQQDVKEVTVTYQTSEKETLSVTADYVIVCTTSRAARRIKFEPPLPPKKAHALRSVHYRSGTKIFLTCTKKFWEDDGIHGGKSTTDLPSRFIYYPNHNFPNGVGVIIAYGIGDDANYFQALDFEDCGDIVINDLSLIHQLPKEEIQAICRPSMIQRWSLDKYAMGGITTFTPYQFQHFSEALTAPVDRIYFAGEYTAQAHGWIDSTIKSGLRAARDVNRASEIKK
UniProt Q6TGQ8, 19-502 limits assumed: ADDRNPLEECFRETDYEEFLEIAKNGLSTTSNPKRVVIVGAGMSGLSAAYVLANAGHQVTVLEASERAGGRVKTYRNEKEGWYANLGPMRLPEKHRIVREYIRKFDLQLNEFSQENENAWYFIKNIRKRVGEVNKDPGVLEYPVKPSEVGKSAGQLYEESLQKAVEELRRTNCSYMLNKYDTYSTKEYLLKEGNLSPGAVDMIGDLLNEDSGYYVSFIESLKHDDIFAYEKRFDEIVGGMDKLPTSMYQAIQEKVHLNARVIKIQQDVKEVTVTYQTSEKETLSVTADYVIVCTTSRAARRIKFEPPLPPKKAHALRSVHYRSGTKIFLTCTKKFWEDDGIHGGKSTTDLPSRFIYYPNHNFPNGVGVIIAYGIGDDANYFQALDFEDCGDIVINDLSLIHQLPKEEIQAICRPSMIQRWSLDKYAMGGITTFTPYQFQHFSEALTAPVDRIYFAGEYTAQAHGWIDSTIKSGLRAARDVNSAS

One assay has as its target BaLAAO (Bothrops atrox, UniProt P0CC17). In words: H2O2 production, peroxidase/o-dianisidine dye assay, […] nm. Conditions: 10 mM substrate; 0.2 M Tris-HCl pH 8.0; 30 °C; 1 h.
The next assay has as its target BmLAAO (Bothrops moojeni, UniProt Q6TGQ8). The assay is described as above. The settings on record: 10 mM substrate; 0.2 M Tris-HCl pH 8.0; 30 °C; 1 h.

On to `CC(C)C[C@H](N)C(=O)O`, for which the “H2O2 production, peroxidase/o-dianisidine dye assay, 410 nm” value is “BaLAAO exhibited had high specific activity towards L-Met, L-Leu, L-His” at BaLAAO and “BmLAAO showed high specificity towards L-Leu L-Met L-His L-Trp L-Tyr L-Phe L-Val” on BmLAAO.

With `CSCC[C@H](N)C(=O)O`, the “H2O2 production, peroxidase/o-dianisidine dye assay, 410 nm” value is recorded as “BaLAAO exhibited had high specific activity towards L-Met, L-Leu, L-His” at BaLAAO and “BmLAAO showed high specificity towards L-Leu L-Met L-His L-Trp L-Tyr L-Phe L-Val” at BmLAAO.
